# Percent effect of library compounds

Mtb glucose medium: 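Whole-cell growth test on Mycobacterium tuberculosis, read after 3 days in glucose-containing 7H9 medium; the read-out is not stated. Compounds at 50 µM. Higher reads as more growth inhibition (inferred: compounds with an IC50 in retests scored well above the rest). About 69,000 compounds were tested under these conditions; 1.1% (about 760) showed 50% or more at least once.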
Mtb cholesterol medium: 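Phenotypic screen: M. tuberculosis growth, cholesterol and DPPC medium, 4 days; the read-out is not stated. Tested at 50 µM. The record gives no direction; compounds that gave an IC50 in retests scored well above the rest, so higher reads as more growth inhibition. Size under these conditions: about 69,000 compounds, about 370 of them at 50% or above in at least one test.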

Values are the deposited “Percent Effect”, in %. The record does not define 0% and 100%; most values in the screen are far below 50% and negative numbers occur (in some assays of this library far below -100). This is part of a subset picked to be rich in strong results. Two or more numbers in one place are separate tests of the same structure; such repeats can differ widely. A dash means the value is not listed here; it may have been measured.

SMILES | Mtb glucose medium | Mtb cholesterol medium
COc1cccc(CNCc2cccnc2-n2cccn2)c1OC | 104 & 2.555 | -
Cc1ccc(-c2nnc(C(C)N3CCn4c(C)nnc4C3)o2)cc1 (stereo not given) | -25.49 | -
CCc1noc(Cn2c(=O)c3c(C(F)(F)F)cc(C)nc3n2C)n1 | 44.72 | 41.88
Cc1nnc(-c2cccc(N3CCC(NC4CCSC4)CC3)c2)s1 (stereo not given) | 4.468 & 4.825 | -
CC(=O)NCC1CN(c2ccc3c(Cl)ccnc3c2F)CCO1 (stereo not given) | -2.33 | -
CC(C)C(C)N(C)Cc1nnc(-c2ccc(Br)s2)o1 (stereo not given) | 51.47 | 60.01 & 63.7
COCCN(C/C=C/c1ccccc1)Cc1ccccn1 | 20.51 | -
CN1CCCC1c1cccc(Cc2ccccc2F)n1 (stereo not given) | 53.31 | -
Cc1nc(N2CCCC2)nc2c1CCN(Cc1nccn1C)CC2.O=C(O)C(F)(F)F | 18.06 | -3.975
Cc1ccc(NC2CCCN(CCc3ccccc3)C2)nn1 (stereo not given) | -31.9 | -20.01 & -10.89
COc1cccc2c3c(c(=O)n(C)c12)CCC(C)(C)O3 | 12.49 & 59.56 | -
CN1CCCCC1c1ncc2c(n1)CCN(Cc1ccccc1Cl)C2 (stereo not given) | 43.89 | -
OC(CN1CCCCCCC1)c1ccc(F)cc1 (stereo not given) | 0.9823 | -
COCc1ccccc1CNC(=O)CNc1ccccc1C(C)=O | -12.01 | -
Cc1cccc(OCCN2CCN(Cc3noc(C)n3)CC2)c1 | 19.14 | -2.723
[H][C@@]12CCN(Cc3ccco3)CC[C@]1([H])[C@H](COC)CN(C)C2=O | 6.779 & 76.39 | -
Cc1nn(C)c2c(NCc3ccc(F)cc3)nc(C3CC3)nc12 | 44.32 | -
CC(C)c1noc(CN2CCN(C(=O)c3cccc(F)c3)CC2)n1 | 18.82 & -16.94 | -
CCn1c(C(=O)N2CCN(C(=O)NC(C)C)CC2)cc2ccccc21 | 4.215 | -
Cc1cc2n(n1)CC(CNC1CCN(C(=O)C3CC3)CC1)CN2 (stereo not given) | 20.01 & -3.132 | -
COc1cc(-c2cccc3c2OC(CN)C3)ccc1O (stereo not given) | 17.29 & 18.1 | -
CC(=O)N1CCCC(c2cnc(-c3c(C)nn(C)c3C)cn2)C1 (stereo not given) | 64.01 | -
CCn1c(NCc2ccccc2)nc2c(C)nn(C)c2c1=O | 16.54 | 14.94
CC(C(=O)O)N1CCc2onc(-c3ccc(F)c(F)c3)c2C1 (stereo not given) | -2.652 & 1.866 | -16.54
COc1cccc(C(C)Nc2ncnc3c2NC(=O)CN3)c1 (stereo not given) | 95.56 | -
CCCN(CC)c1cc(C2CCNCC2)nc(C)n1 | 6.601 | -
CCN1CCC2(CC1)CC(NC(=O)c1csnn1)c1ccccc1O2.O=C(O)C(F)(F)F (stereo not given) | 50.66 | -
COCCN1CC(C(=O)N(C)Cc2ccc(Cl)s2)CC1=O (stereo not given) | 7.549 | -
Cc1nc(CNC(=O)[C@@H]2CCCN2C(=O)OC(C)(C)C)cs1 | 9.506 | -13.22
O=C(c1cc(=O)n(-c2ccccc2)[nH]1)N1CCOCC(O)C1 (stereo not given) | - | -12.51
CCc1nnsc1C(=O)N1CCCN(Cc2ccc(F)cc2)CC1 | - | 7.749
COc1ccc(NCC2(O)CCNCC2)cc1OC | 15.14 & -4.821 | -
CCCN1CCC(c2cc(CCOc3ccc(C(F)(F)F)cc3)[nH]n2)C1 (stereo not given) | - | 21.96 & 18.92
CCc1c(C)nc(-n2nc(C3CC3)cc2NC(C)=O)[nH]c1=O | -14.94 | -
COC1(CNC(=O)c2ccc(F)c(F)c2)CCSC1 (stereo not given) | - | 15.05
N#Cc1ccc(N2CCCN(CC(N)=O)CC2)cc1 | 15.04 | -
COc1cccc(CN(C)C(=O)CN2CC(n3nc(C)cc3C)C2)c1 | 0.7193 & -0.7445 | -
Cc1ccc(C(=O)O)c(N2Cc3cnc(C(C)(C)C)nc3C2)n1 | -5.123 & -2.854 | -
Clc1cc(NCc2nccs2)nc2[nH]ccc12 | 4.755 | -
COC(=O)CCC(=O)N1CCC2(CN(Cc3ccc(Cl)cc3)C2)C1 | -16.74 | -
CC(CNC(=O)c1cc(C2CC2)on1)N1CCc2ccccc21 (stereo not given) | 57.18 | -
Cc1nc(C2CCN(C(=O)c3cc(C4CC4)[nH]n3)CC2)no1 | -7.492 | -
CC(C)(C)CC(=O)N1CCc2sccc2C1 | -7.177 & -0.8459 | -
Br.COc1ccc(C(=O)CN(C2=NCCCCC2)c2ccccc2)cc1 | 35.55 | 10.32
CN(Cc1ccc(F)cc1)S(=O)(=O)N1CCOCC1 | -31.47 | -2.496
COc1cccc(CN2CCCC(Nc3cccc(F)c3)C2)c1O (stereo not given) | 56.03 | -
CN(C)c1nccc(NC(=O)c2ccncc2)n1 | -15.78 | -3.443
CC(=O)NCc1noc2c1CN(Cc1ccsc1)CC2 | 94.94 & 8.659 | -
CC(=O)N1CCC(n2ccc(-c3cnc(NCC(C)C)nc3)n2)CC1 | 52.34 | -
O[C@@H]1CN(c2nc3ccccc3o2)CC[C@H]1c1ccc2c(c1)OCO2 | -32.97 | -21.07
Cc1ccc(CN[C@@H]2COC[C@H]2c2ccc(F)cc2)cc1C.O=C(O)CC(O)(CC(=O)O)C(=O)O | 56.52 | -
CN1Cc2ccccc2NC(=O)C12CCNC2 (stereo not given) | 21.54 | -
Clc1cccc(C(NCc2ncc[nH]2)c2ccccn2)c1 (stereo not given) | 8.328 & 20.06 | 4.089
O=S(=O)(Cc1ccccc1)NCCNc1ccc(-n2cccc2)nn1 | 33.57 & -2.185 | -4.075
CCC(=O)NCC(c1ccc(SC)cc1)N1CCc2sccc2C1 (stereo not given) | 35.87 | -
COc1ccc(C(=O)NCCCC2(C3OCCO3)CCOCC2)cc1 | 11.92 & 111.8 | -
Fc1cccc(CN2CCC(c3n[nH]c4ncccc34)CC2)c1F | 8.114 | -
CC1CN(C)c2ccccc2CN1C(=O)c1cnsn1 (stereo not given) | -12.8 | -
CN(C)[C@H]1C[C@@H](Cc2cc(-c3ccc(F)cc3)on2)C1(C)C | 17.58 & 59.33 | -
O=C(NCc1ccc(C(=O)O)o1)c1ccc(F)cc1 | 18.86 | -
Cc1cc(=O)[nH]c(-n2nc(-c3cccs3)cc2N)n1 | 20.57 | -
CCC(CCO)NS(=O)(=O)c1ccc(Br)cn1 (stereo not given) | 14.27 | -
Cc1c(CN2CC[C@@H](N3CCC(O)CC3)[C@H](O)C2)[nH]c2ccc(Cl)cc12 | 40.64 | -
O=C(O)C(=O)O.c1csc(CN2CC(c3nc(-c4cnccn4)no3)C2)c1 | 119.2 & 11.67 | -
CCc1noc(CN2CCN(C(=O)Cc3ccc(F)cc3)CC2)n1 | 9.901 | -
CN(CCc1cccs1)C1CCCN(Cc2noc(C3CC3)n2)C1 (stereo not given) | - | 50.75
N[C@H]1CCCN(S(=O)(=O)c2ccc(C(=O)NCC(F)F)cc2)C1 | - | 83.46
CN(Cc1cccc(-n2cccn2)c1)C(=O)c1cccc(N(C)C)c1 | -20.58 | 0.8951
Cc1ccccc1CSc1nc(N)cc(N2CCOCC(CO)C2)n1 (stereo not given) | -37.5 | -29.68
CC(C)(C)c1cc(C(=O)NCCN2CCCS2(=O)=O)[nH]n1 | -1.452 | -9.474
CC(O)CCN(C)S(=O)(=O)Cc1ccc(Cl)c(Cl)c1 (stereo not given) | 9.99 & 34.95 | 0.6483
CCN(Cc1cccs1)S(=O)(=O)N(C)C(C)C | -1.995 & 4.914 | -
O=C(c1nnn(-c2ccc(C(F)(F)F)cc2)n1)N1CC(O)C1 | -16.07 & 6.73 | -
c1ccc2c(CC3CN(Cc4nccs4)CCO3)cccc2c1 (stereo not given) | - | 9.431 & 16.13

Repeated from the top, 8 entries:

For COc1cccc(CNCc2cccnc2-n2cccn2)c1OC the result was Mtb glucose medium: 104% & 2.555%.
For Cc1ccc(-c2nnc(C(C)N3CCn4c(C)nnc4C3)o2)cc1 (stereo not given) the result was Mtb glucose medium: -25.49%.
For CCc1noc(Cn2c(=O)c3c(C(F)(F)F)cc(C)nc3n2C)n1 the result was Mtb glucose medium: 44.72%; Mtb cholesterol medium: 41.88%.
For Cc1nnc(-c2cccc(N3CCC(NC4CCSC4)CC3)c2)s1 (stereo not given) the result was Mtb glucose medium: 4.468% & 4.825%.
For CC(=O)NCC1CN(c2ccc3c(Cl)ccnc3c2F)CCO1 (stereo not given) the result was Mtb glucose medium: -2.33%.
For CC(C)C(C)N(C)Cc1nnc(-c2ccc(Br)s2)o1 (stereo not given) the result was Mtb glucose medium: 51.47%; Mtb cholesterol medium: 60.01% & 63.7%.
For COCCN(C/C=C/c1ccccc1)Cc1ccccn1 the result was Mtb glucose medium: 20.51%.
For CN1CCCC1c1cccc(Cc2ccccc2F)n1 (stereo not given) the result was Mtb glucose medium: 53.31%.

Source: ChEMBL document CHEMBL3988442, “University of Dundee, Small-Polar-MMV Screening Library” (2021).